Assay results taken from ChEMBL document CHEMBL1155893 (J Med Chem, 2008).

What was measured:
[1] = Selectivity index, ratio of IC50 for multidrug-resistant Plasmodium falciparum chloroquine-resistant W2 to IC50 for chloroquine and mefloquine-susceptible Plasmodium falciparum D6; assay type: functional
[2] = Selectivity index, ratio of IC50 for multidrug-resistant Plasmodium falciparum TM91C235 to IC50 for chloroquine and mefloquine-susceptible Plasmodium falciparum D6; assay type: functional

Row | Compound | Ratio IC50 [1] | Ratio IC50 [2]
1 | Clc1ccc2c(NCCNCCC34CC5CC(CC(C5)C3)C4)ccnc2c1 | 2.27 | 1.79
2 | Clc1ccc2c(NCCCNCCC34CC5CC(CC(C5)C3)C4)ccnc2c1 | 2.41 | 7.35
3 | Clc1ccc2c(NCCNCC34CC5CC(CC(C5)C3)C4)ccnc2c1 | 1.85 | 1.81
4 | Clc1ccc2c(NCCCNCC34CC5CC(CC(C5)C3)C4)ccnc2c1 | 3.13 | 3.15
